Converted amounts (≈) assume the structure as drawn.
Tests used:
Assay in all cases: agar serial dilution test, MIC
Settings in all cases: 24 hours at 37°C
[1] = system: Staphylococcus aureus A 2001; format: cell-based
[2] = system: Pseudomonas aeruginosa H 10; format: cell-based
[3] = system: Proteus mirabilis A 1200; format: cell-based
[4] = system: Pseudomonas aeruginosa 2396; format: cell-based
[5] = system: Streptococcus haemolyticus A 266; format: cell-based
[6] = system: Escherichia coli U 20; format: cell-based
[7] = system: Streptococcus faecalis L 80; format: cell-based
[8] = system: Staphylococcus aureus A 2000; format: cell-based
[9] = system: Staphylococcus aureus A 355'; format: cell-based
[10] = system: Pseudomonas aeruginosa Wyeth A 1058; format: cell-based
[11] = system: Klebsiella pneumoniae A 809; format: cell-based
[12] = system: Pasteurella multocida A 723; format: cell-based
[13] = system: Diplococcus pneumoniae L 54; format: cell-based
[14] = system: Staphylococcus aureus A 321; format: cell-based
[15] = system: Proteus morganii 2241; format: cell-based
[16] = system: Proteus mirabilis L 93
[17] = system: Shigella equirulis T 3
[18] = system: Brucella melitensis A 488
[19] = system: Salmonella typhimurium R172; format: cell-based
[20] = system: Proteus mirabilis H 3; format: cell-based
[21] = system: Proteus rettgeri A 821; format: cell-based
[22] = system: Salmonella dublin P 43; format: cell-based
[23] = system: Salmonella typhimurium R 127; format: cell-based

| Compound | MIC [1] [µg/mL] | MIC [2] [µg/mL] | MIC [3] [µg/mL] | MIC [4] [µg/mL] | MIC [5] [µg/mL] | MIC [6] [µg/mL] | MIC [7] [µg/mL] | MIC [8] [µg/mL] | MIC [9] [µg/mL] | MIC [10] [µg/mL] | MIC [11] [µg/mL] | MIC [12] [µg/mL] | MIC [13] [µg/mL] | MIC [14] [µg/mL] | MIC [15] [µg/mL] | MIC [16] [µg/mL] | MIC [17] [µg/mL] | MIC [18] [µg/mL] | MIC [19] [µg/mL] | MIC [20] [µg/mL] | also measured |
| --- | --- | --- | --- | --- | --- | --- | --- | --- | --- | --- | --- | --- | --- | --- | --- | --- | --- | --- | --- | --- | --- |
| CCOP(=S)(NC(=O)N[C@@H](C(=O)N[C@@H]1C(=O)N2[C@@H]1SC(C)(C)[C@@H]2C(=O)O)c1ccccc1)OCC | 3 (≈ 5.51 µM) | > 100 | 25 (≈ 45.9 µM) | 100 (≈ 184 µM) | 0.03 (≈ 0.0551 µM) | 50 (≈ 91.8 µM) | 3 (≈ 5.51 µM) | 6 (≈ 11 µM) | 25 (≈ 45.9 µM) | 100 (≈ 184 µM) | 25 (≈ 45.9 µM) | 1.5 (≈ 2.75 µM) | 0.3 (≈ 0.551 µM) | 1 (≈ 1.84 µM) | 100 (≈ 184 µM) | 6 (≈ 11 µM) | 6 (≈ 11 µM) | 0.5 (≈ 0.918 µM) | – | – | – |
| CCOP(=O)(NC(=O)N[C@@H](C(=O)N[C@@H]1C(=O)N2[C@@H]1SC(C)(C)[C@@H]2C(=O)O)c1ccccc1)Nc1ccccc1 (some centres unmarked) | 3 (≈ 5.21 µM) | 100 (≈ 174 µM) | – | 25 (≈ 43.4 µM) | 0.06 (≈ 0.104 µM) | 25 (≈ 43.4 µM) | 6 (≈ 10.4 µM) | 3 (≈ 5.21 µM) | 6 (≈ 10.4 µM) | 25 (≈ 43.4 µM) | 25 (≈ 43.4 µM) | 3 (≈ 5.21 µM) | 0.5 (≈ 0.869 µM) | 0.5 (≈ 0.869 µM) | 50 (≈ 86.9 µM) | 6 (≈ 10.4 µM) | 3 (≈ 5.21 µM) | 1.5 (≈ 2.61 µM) | 25 (≈ 43.4 µM) | 25 (≈ 43.4 µM) | MIC [21]: 3 µg/mL (≈ 5.21 µM) |
| CCOP(=S)(NC(=O)N[C@@H](C(=O)N[C@@H]1C(=O)N2C(C(=O)O)=C(C)CS[C@H]12)c1ccccc1)OCC | – | > 100 | > 100 | > 100 | 1 (≈ 1.84 µM) | > 100 | > 100 | – | – | > 100 | 50 (≈ 92.2 µM) | 25 (≈ 46.1 µM) | 6 (≈ 11.1 µM) | – | > 100 | > 100 | 100 (≈ 184 µM) | 100 (≈ 184 µM) | 100 (≈ 184 µM) | > 100 | MIC [22]: 50 µg/mL (≈ 92.2 µM); MIC [21]: 25 µg/mL (≈ 46.1 µM) |
| CCOP(=O)(NC(=O)N[C@@H](C(=O)N[C@@H]1C(=O)N2C(C(=O)O)=C(C)CS[C@H]12)c1ccccc1)OCC | 6 (≈ 11.4 µM) | > 100 | > 100 | > 100 | 1.5 (≈ 2.85 µM) | 100 (≈ 190 µM) | > 100 | – | – | > 100 | 25 (≈ 47.5 µM) | – | 25 (≈ 47.5 µM) | 6 (≈ 11.4 µM) | > 100 | 100 (≈ 190 µM) | 25 (≈ 47.5 µM) | – | 100 (≈ 190 µM) | > 100 | MIC [22]: 100 µg/mL (≈ 190 µM); MIC [21]: 50 µg/mL (≈ 95 µM) |
| CC1(C)S[C@@H]2[C@H](NC(=O)[C@H](NC(=O)NP(=S)(Oc3ccccc3)Oc3ccccc3)c3ccccc3)C(=O)N2[C@H]1C(=O)O | 1 (≈ 1.56 µM) | 100 (≈ 156 µM) | – | 25 (≈ 39 µM) | – | 25 (≈ 39 µM) | 1.5 (≈ 2.34 µM) | 3 (≈ 4.68 µM) | 25 (≈ 39 µM) | 25 (≈ 39 µM) | – | 3 (≈ 4.68 µM) | 0.25 (≈ 0.39 µM) | 0.25 (≈ 0.39 µM) | 25 (≈ 39 µM) | 6 (≈ 9.37 µM) | 3 (≈ 4.68 µM) | – | – | – | MIC [23]: 50 µg/mL (≈ 78 µM) |
| CCOP(=O)(O)NC(=O)N[C@@H](C(=O)N[C@@H]1C(=O)N2C(C(=O)O)=C(C)CS[C@H]12)c1ccccc1 | – | > 100 | 100 (≈ 201 µM) | > 100 | – | > 100 | > 100 | 50 (≈ 100 µM) | 100 (≈ 201 µM) | > 100 | 50 (≈ 100 µM) | – | > 100 | 25 (≈ 50.2 µM) | > 100 | – | – | 25 (≈ 50.2 µM) | > 100 | 25 (≈ 50.2 µM) | MIC [22]: 50 µg/mL (≈ 100 µM); MIC [21]: 6 µg/mL (≈ 12 µM) |
| CC1(C)S[C@@H]2[C@H](NC(=O)[C@H](NC(=O)NP(=O)(Nc3ccccc3)Nc3ccccc3)c3ccccc3)C(=O)N2[C@H]1C(=O)O | 3 (≈ 4.82 µM) | 100 (≈ 161 µM) | 6 (≈ 9.64 µM) | 25 (≈ 40.2 µM) | 0.03 (≈ 0.0482 µM) | 25 (≈ 40.2 µM) | 3 (≈ 4.82 µM) | 3 (≈ 4.82 µM) | 3 (≈ 4.82 µM) | 25 (≈ 40.2 µM) | 25 (≈ 40.2 µM) | 1.5 (≈ 2.41 µM) | 0.5 (≈ 0.803 µM) | 0.25 (≈ 0.402 µM) | 25 (≈ 40.2 µM) | 0.3 (≈ 0.482 µM) | 1.5 (≈ 2.41 µM) | 0.5 (≈ 0.803 µM) | 25 (≈ 40.2 µM) | – | – |
| CC1=C(C(=O)O)N2C(=O)[C@@H](NC(=O)[C@H](NC(=O)NP(=O)(Oc3ccccc3)Oc3ccccc3)c3ccccc3)[C@H]2SC1 | 1.5 (≈ 2.41 µM) | > 100 | > 100 | > 100 | 1 (≈ 1.61 µM) | > 100 | > 100 | 1.5 (≈ 2.41 µM) | 3 (≈ 4.82 µM) | > 100 | 100 (≈ 161 µM) | 25 (≈ 40.2 µM) | – | 1.5 (≈ 2.41 µM) | > 100 | > 100 | – | 25 (≈ 40.2 µM) | > 100 | > 100 | MIC [22]: 100 µg/mL (≈ 161 µM); MIC [21]: 50 µg/mL (≈ 80.3 µM) |
| CCOC(=O)NNP(=O)(NC(=O)N[C@@H](C(=O)N[C@@H]1C(=O)N2[C@@H]1SC(C)(C)[C@@H]2C(=O)O)c1ccccc1)OCC (some centres unmarked) | 3 (≈ 5.11 µM) | > 100 | 3 (≈ 5.11 µM) | 25 (≈ 42.6 µM) | 0.06 (≈ 0.102 µM) | 25 (≈ 42.6 µM) | 3 (≈ 5.11 µM) | 6 (≈ 10.2 µM) | 6 (≈ 10.2 µM) | 25 (≈ 42.6 µM) | > 100 | 0.75 (≈ 1.28 µM) | 0.5 (≈ 0.852 µM) | 0.5 (≈ 0.852 µM) | 50 (≈ 85.2 µM) | 1.5 (≈ 2.56 µM) | 1.5 (≈ 2.56 µM) | 0.5 (≈ 0.852 µM) | – | 6 (≈ 10.2 µM) | MIC [22]: 6 µg/mL (≈ 10.2 µM) |
| CCSP(=O)(NC(=O)N[C@@H](C(=O)N[C@@H]1C(=O)N2[C@@H]1SC(C)(C)[C@@H]2C(=O)O)c1ccccc1)SCC | 6 (≈ 10.7 µM) | 100 (≈ 178 µM) | 6 (≈ 10.7 µM) | 50 (≈ 89.2 µM) | 0.06 (≈ 0.107 µM) | – | 3 (≈ 5.35 µM) | 6 (≈ 10.7 µM) | 6 (≈ 10.7 µM) | 50 (≈ 89.2 µM) | 25 (≈ 44.6 µM) | 0.5 (≈ 0.892 µM) | 0.25 (≈ 0.446 µM) | 0.5 (≈ 0.892 µM) | 100 (≈ 178 µM) | 1.5 (≈ 2.68 µM) | 1.5 (≈ 2.68 µM) | 0.5 (≈ 0.892 µM) | – | 6 (≈ 10.7 µM) | MIC [22]: 3 µg/mL (≈ 5.35 µM) |
| CCOP(=O)(NC(=O)Nc1ccccc1)N[C@@H](C(=O)N[C@@H]1C(=O)N2[C@@H]1SC(C)(C)[C@@H]2C(=O)O)c1ccccc1 (some centres unmarked) | 3 (≈ 5.21 µM) | > 100 | 25 (≈ 43.4 µM) | 50 (≈ 86.9 µM) | 0.12 (≈ 0.208 µM) | > 100 | – | 6 (≈ 10.4 µM) | 6 (≈ 10.4 µM) | 50 (≈ 86.9 µM) | > 100 | 1.5 (≈ 2.61 µM) | 0.5 (≈ 0.869 µM) | 1.5 (≈ 2.61 µM) | 50 (≈ 86.9 µM) | 6 (≈ 10.4 µM) | – | 3 (≈ 5.21 µM) | > 100 | 50 (≈ 86.9 µM) | MIC [22]: 50 µg/mL (≈ 86.9 µM); MIC [21]: 1.5 µg/mL (≈ 2.61 µM) |
| Pivaloyloxymethyl D-6 [α-{3-(diphenoxyphosphinyl)-ureido}-benzylcarbonamido]-penicillanate | > 100 | > 100 | > 100 | > 100 | – | > 100 | > 100 | > 100 | > 100 | > 100 | > 100 | > 100 | 50 | 100 | > 100 | > 100 | > 100 | – | > 100 | > 100 | MIC [22]: > 100 µg/mL; MIC [21]: > 100 µg/mL |
